# Data: PubChem BioAssay AID720517 (National Center for Advancing Translational Sciences (NCATS), 2013)
# The list shows a part of the results, in another mix than the full data. Inconclusive results are not listed. Active and inactive are the calls of the source. Calls follow the shape of the dose curve; as a rule, active = well fitted activation curve with a large enough effect; inconclusive = small, poorly fitted or top-dose-only effect; inactive = flat fitted curve, though single readings scatter.
# Assay: qHTS for Inhibitors of Cell Surface uPA Generation: FP59 Counterscreen for Cherry-picked Compounds; also: 0% is about no effect
# Settings: FP59 anthrax toxin cytotoxicity counterscreen, cells; at 115 µM (top of the series)
structure (smiles),measurement,value
O=C(O)CNc1ccc([As](=O)(O)O)cc1,activity (protection from FP59),inactive: -1.29%
